Results deposited as PubChem BioAssay AID504761 (Drosophila RNAi Screening Center, 2011).
The deposit covers about 22,000 reagents; this is a random part of those with a known target gene and a result. In the full data, 116 (0.52%) got an active call. 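Calls depend on retest data that are not deposited; infection was ranked per plate without normalising between plates; the unit of the infection score is not given.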 Raw values vary from plate to plate and are shown uncorrected. Entries without a mark were called inactive. Reagents against one gene are numbered here. Reagent sequences are not shown. Not given: the amount of reagent, the time to read-out.

Screen: 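Insect host genes that dengue virus relies on to spread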 (primary screen)
Cell system: D.Mel-2 cells from Drosophila
Reagent: long dsRNA against Drosophila genes
Challenge: infection with dengue virus type 2; dose and infection time not stated
Measured: 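Cells stained for dengue envelope protein and imaged; percent of infected cells per well on duplicate plates, ranked by infection, with stained nuclei counted for cell number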
Direction: infection score: higher = more virus-infected cells; cell count: higher = more cells in the well
Call rule: 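Low infection ranks in the two replicates (chance level up to 0.065) followed by a retest with a 1.5-fold or larger significant decrease, p below 0.05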
Calls: active = confirmed: knock-down lowers infection; inactive = not picked or not confirmed

Target gene	dsRNA no.	infection score, replicate 1	infection score, replicate 2	cell count, replicate 1	cell count, replicate 2
HLH54F	1	11.8	10.1	6624	6769
CR30029	1	13.3	5.35	5989	6734
CG30389	1	3.93	6.22	5961	5900
CG30389	2	10.6	8.8	5133	5795
CG30389	3	12.8	12.9	6450	6239
omd	1	2.26	5.87	4337	4191
omd	2	18.7	3.05	4649	1412
CG6769	1	9.32	7.62	6566	7457
Hacd2	1	8.93	17.3	6168	5589
CCDC151	1	2.81	6.34	6333	6039
CCDC151	2	3.35	3.36	6457	6073
Sc2	1	10.5	29.5	2490	5198
Sc2	2	11.8	6.17	4175	5879
CG31705	1	47.4	25.4	957	717
CG31705	2	1.67	18.9	1320	1531
CG30109	1	8.78	9.91	6073	5692
Rpn2	1	4.51	2.63	2107	2360
CG6696	1	4.4	2.69	2843	5054
CG6696	2	1.01	11.9	6433	4735
udt	1	0.69	3.21	5973	5889
CG30414	1	4.83	6.59	6397	6328
CG30414	2	20.1		4208	306
CG3610	1	8.79	27.9	6793	4584
CG3610	2	12.3	2.2	6703	6493

3 of these entries in another layout.
omd #1 → infection score, replicate 1 = 2.26; infection score, replicate 2 = 5.87; cell count, replicate 1 = 4337; cell count, replicate 2 = 4191
omd #2 → infection score, replicate 1 = 18.7; infection score, replicate 2 = 3.05; cell count, replicate 1 = 4649; cell count, replicate 2 = 1412
CG6769 → infection score, replicate 1 = 9.32; infection score, replicate 2 = 7.62; cell count, replicate 1 = 6566; cell count, replicate 2 = 7457
